Laboratory results: PubChem BioAssay AID1224833 (University of Georgia, 2016)
Test: 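Host factors restraining rotavirus as candidate antiviral genes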 (primary screen). Cells: monkey MA104 kidney cells. Reagent: siRNA pool against human genes, 50 nM. Timing: 48 h knock-down before infection; read 24 h after infection. Challenge: infection with rotavirus strain RV3 two days after transfection; infectious dose for this stage not given. Read-out: 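Rotavirus antigen per well by fluorescent immunoassay, normalised to non-targeting control wells on each plate and given as a standard z-score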. Scale: z-score vs non-targeting control: higher = more rotavirus replication than with non-targeting control. Call rule: In these data the active calls have z-score vs non-targeting control at about -1 or lower, or at about 1 or higher. Meaning of the calls: active = z-score beyond 1 either way; inactive = z-score within 1 of zero.
This is an unselected part of about 12,000 reagents. In the full data, about 5,600 (46%) were called active. 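Active calls cover z-scores past 1 in both directions, so they include lowered as well as raised rotavirus replication.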

gene symbol,z-score vs non-targeting control,activity call
USP40 (ubiquitin specific peptidase 40),-0.679,inactive
NRCAM (neuronal cell adhesion molecule),0.505,inactive
ADAMTS7 (ADAM metallopeptidase with thrombospondin type 1 motif 7),0.507,inactive
PDCL (phosducin like),-0.883,inactive
CNRIP1 (cannabinoid receptor interacting protein 1),-0.28,inactive
PDCD4 (programmed cell death 4),-1.31,active
VN1R2 (vomeronasal 1 receptor 2),1.54,active
PTGS2 (prostaglandin-endoperoxide synthase 2),-1.65,active
YWHAH,-1.19,active
ARHGEF16 (Rho guanine nucleotide exchange factor 16),-1.05,active
METTL26 (methyltransferase like 26),0.507,inactive
SLC3A2,-0.744,inactive
"POLA2 (DNA polymerase alpha 2, accessory subunit)",-0.805,inactive
KIR3DL3,-1.21,active
"METTL1 (methyltransferase 1, tRNA methylguanosine)",0.506,inactive
FCRLB (Fc receptor like B),-1.37,active
POTEA (POTE ankyrin domain family member A (gene/pseudogene)),0.24,inactive
CCDC38 (coiled-coil domain containing 38),1.24,active
CD46 (CD46 molecule),-0.548,inactive
HDAC1 (histone deacetylase 1),-1.26,active
NPIPB15 (nuclear pore complex interacting protein family member B15),0.658,inactive
"SPTBN4 (spectrin beta, non-erythrocytic 4)",-0.808,inactive
CCDC171 (coiled-coil domain containing 171),0.647,inactive
PIEZO1,-3.15,active
ZNF431 (zinc finger protein 431),0.951,inactive
CSF3R (colony stimulating factor 3 receptor),-2.44,active
"NUBPL (NUBP iron-sulfur cluster assembly factor, mitochondrial)",1.26,active
PHC2 (polyhomeotic homolog 2),-0.621,inactive
BLTP2 (bridge-like lipid transfer protein family member 2),-0.583,inactive
LRFN4,0.522,inactive
KRT6B (keratin 6B),0.313,inactive
NTN4 (netrin 4),-0.319,inactive
DIP2C (DIP2 acetate--CoA ligase C (putative)),0.401,inactive
U2AF2 (U2 small nuclear RNA auxiliary factor 2),1.74,active
SDHAF3 (succinate dehydrogenase complex assembly factor 3),0.243,inactive
CA5B (carbonic anhydrase 5B),-1.01,active
KIF17 (kinesin family member 17),-1.64,active
PRAF2 (PRA1 domain family member 2),-1.72,active
INSM2 (INSM transcriptional repressor 2),-1.63,active
HEATR4 (HEAT repeat containing 4),-0.502,inactive
NPS (neuropeptide S),-0.761,inactive
RGS5 (regulator of G protein signaling 5),0.251,inactive
LOXL3 (lysyl oxidase like 3),1.28,active
DDX20 (DEAD-box helicase 20),-1.67,active
TAFA1 (TAFA chemokine like family member 1),-2.55,active
"CARS2 (cysteinyl-tRNA synthetase 2, mitochondrial)",1.6,active
"SMO (smoothened, frizzled class receptor)",-0.563,inactive
ZNF326 (zinc finger protein 326),-0.926,inactive
OR7E24 (olfactory receptor family 7 subfamily E member 24),1.6,active
"MPL (MPL proto-oncogene, thrombopoietin receptor)",-0.896,inactive
ADORA2A (adenosine A2a receptor),-0.576,inactive
ARHGEF1 (Rho guanine nucleotide exchange factor 1),-2.34,active
CLEC18C (C-type lectin domain family 18 member C),-0.889,inactive
LEPR (leptin receptor),1.05,active
TJAP1 (tight junction associated protein 1),-0.302,inactive
NECAB3 (N-terminal EF-hand calcium binding protein 3),-1.79,active
NEXMIF (neurite extension and migration factor),0.485,inactive
MAGEH1 (MAGE family member H1),-0.671,inactive
PDPN (podoplanin),0.181,inactive
ELL (elongation factor for RNA polymerase II),-0.349,inactive
TRDMT1 (tRNA aspartic acid methyltransferase 1),0.781,inactive
SLAMF8 (SLAM family member 8),-1.99,active
MBP (myelin basic protein),1.03,active
SLCO4A1,-2.01,active
CEACAM7 (CEA cell adhesion molecule 7),0.897,inactive
FRMD1 (FERM domain containing 1),0.145,inactive
KRT39 (keratin 39),1.18,active
PDE6B (phosphodiesterase 6B),-1.28,active
VPS28 (VPS28 subunit of ESCRT-I),-1.2,active
RASL11B (RAS like family 11 member B),-0.724,inactive
IER5 (immediate early response 5),0.0594,inactive
TBC1D8 (TBC1 domain family member 8),0.367,inactive
SSTR1 (somatostatin receptor 1),-1.21,active
RBM15 (RNA binding motif protein 15),-2.42,active
FHL1 (four and a half LIM domains 1),-1.78,active
ZNF148 (zinc finger protein 148),1.34,active
SYCP1 (synaptonemal complex protein 1),-1.01,active
IL36R (interleukin 36 receptor),1.56,active
ISG15 (ISG15 ubiquitin like modifier),-2.87,active
GAST (gastrin),-0.37,inactive
ANO9 (anoctamin 9),-0.306,inactive
PRY (PTPN13 like Y-linked),-1.17,active
GRN (granulin precursor),0.494,inactive
ARHGAP36 (Rho GTPase activating protein 36),0.909,inactive
AMPH (amphiphysin),0.296,inactive
ASGR2 (asialoglycoprotein receptor 2),-1.84,active
"MUC4 (mucin 4, cell surface associated)",-0.765,inactive
RGS1 (regulator of G protein signaling 1),-1.82,active
GAL3ST3 (galactose-3-O-sulfotransferase 3),1.98,active
CALD1 (caldesmon 1),-0.327,inactive
PRPF4 (pre-mRNA splicing tri-snRNP complex factor PRPF4),3.03,active
OR56A1 (olfactory receptor family 56 subfamily A member 1),0.454,inactive
ZNF408 (zinc finger protein 408),-0.592,inactive
PXDN (peroxidasin),1.06,active
SLC24A1,0.748,inactive
ANKRD29 (ankyrin repeat domain 29),-0.351,inactive
SBSN (suprabasin),-0.791,inactive
PLEKHO1 (pleckstrin homology domain containing O1),-0.631,inactive
STX4 (syntaxin 4),1.28,active
TNRC18 (trinucleotide repeat containing 18),0.942,inactive
CCDC8 (coiled-coil domain containing 8 subunit of 3M complex),-1.65,active
SLC1A3,-1.59,active
NELFB (negative elongation factor complex member B),-1.42,active
HEMK1,-0.654,inactive
USP4 (ubiquitin specific peptidase 4),0.851,inactive
RPS4Y2 (ribosomal protein S4 Y-linked 2),1.11,active
MVD (mevalonate diphosphate decarboxylase),0.0613,inactive
SSX4B (SSX family member 4B),-1.19,active
COMMD8 (COMM domain containing 8),-1.3,active
POC1B (POC1 centriolar protein B),1.2,active

5 entries from above in another layout.
gene symbol | z-score vs non-targeting control | activity call
MBP (myelin basic protein) | 1.03 | active
SLCO4A1 | -2.01 | active
CEACAM7 (CEA cell adhesion molecule 7) | 0.897 | inactive
FRMD1 (FERM domain containing 1) | 0.145 | inactive
KRT39 (keratin 39) | 1.18 | active
